Experimental data: paper PMC3358452 (Chemical Research in Toxicology, 2012)

Tested on: F344 rat liver

In the case of `O=C1COCCO1` [compound 1, 1,4-Dioxan-2-one], the “promotion of AFB1-induced foci (in words)” value (1 (1.32 g over 12 weeks) after AFB1, group 2 vs group 1, t-test) was “failed to statistically increase focal number or focal volume percent” and the “rats with a focus” value (group 3 (1 only), cumulative total dose 1.32 g) was “one of 8”.
